Pooled drug test results. Numbers come from NIAID ChemDB, via PubChem.

All rows: whole-cell or culture tests; species: Candida albicans; endpoint: MIC

An empty or dashed field is not shown. Lines come from different laboratories, so protocols vary.

SMILES | strain | result
CCCCCCCCOc1ccc(C(=O)NC2C[C@@H](O)[C@@H](O)NC(=O)C3[C@@H](O)[C@@H](C)CN3C(=O)C(C(C)O)NC(=O)C([C@H](O)[C@@H](O)c3ccc(O)cc3)NC(=O)C3C[C@@H](O)CN3C(=O)C(C(C)O)NC2=O)cc1 | CS | 0.25 µg/mL
NC(=NC1CCCC1)c1ccc(-c2ccc(-c3ccc(C(N)=NC4CCCC4)cc3)o2)cc1 | Isolate CA783 | 12.5 µg/mL
Cc1ccc(N2C(=O)C(Cl)(Cl)C2c2ccccc2)cc1 | ATCC 10231 | 125 µg/mL
CCCn1c(-c2ccccc2)nc2cc(NC(=S)Nc3ccc(Cl)cc3)ccc21 | - | 25 µg/mL
O=C1CC(Nc2ccc(Oc3ccc(Cl)cc3)c(Cl)c2)C(=O)N1c1cnc2ccccc2c1 | - | >200 µg/mL
N#CC(C(=S)NCc1ccc(Cl)cc1)c1nc2ccccc2o1 | - | <100 µg/mL
O=C1CC(Nc2ccc(Oc3ccc(Cl)cc3)c(Cl)c2)C(=O)N1Cc1ccccc1 | - | 200 µg/mL
COc1ccc2cc3[n+](cc2c1OC)CCc1cc2c(cc1-3)OCO2 | ATCC 10231 | 250 µg/mL
CNc1ccc(C(=O)CC(O)CCC(C)C2OC(=O)CC(O)CC(=O)CC(O)CC(O)CC(O)CC(O)CC3(O)CC(O)C(C(=O)N4CCN(C)CC4)C(CC(O[C@@H]4O[C@H](C)[C@@H](O)[C@H](NC(=O)CCN5CCCCC5)[C@@H]4O)/C=C/C=C/C=C/C=C\C=C/C=C/C=C/C2C)O3)cc1 | 200 | 0.06 µg/mL
Cc1cc(COc2ccc(Oc3ccc(Cl)cc3)cc2)n(O)c(=O)c1 | TIMM2640 | 2 µg/mL
N#C/C(=C1\SC(=O)CN1c1ccc(Cl)cc1)c1nc2ccccc2o1 | - | >200 µg/mL
COc1ccc(N2C(=O)CC(Nc3ccc(Oc4ccc(Cl)cc4)c(Cl)c3)C2=O)cc1 | - | >200 µg/mL
CC1=C(Sc2ccc(Cl)cc2)C(=O)c2sc(C)nc2C1=O | ATCC20231 | 100 µg/mL
OC(Cn1cncn1)(Cn1cncn1)c1ccc(F)cc1F | 3028 | 50 µg/mL
C[C@H]1[C@H](O)[C@@H](C)/C=C/C=C/C=C/C=C/C=C/C=C/C=C/[C@H](O[C@@H]2O[C@H](C)[C@@H](O)[C@H](N)[C@@H]2O)C[C@@H]2O[C@](O)(C[C@@H](O)C[C@@H](O)CC[C@H](O)[C@@H](O)C[C@@H](O)CC(=O)O[C@H]1C)C[C@H](O)[C@H]2C(=O)O | ATCC28838 | 1.56 µg/mL
Cc1nc2c(s1)C(=O)C(Sc1ccc3ccccc3c1)=C(O)C2=O | ATCC20231 | >100 µg/mL
CCCn1c(-c2ccccc2)nc2cc(NC(=S)Nc3ccccc3)ccc21 | - | 25 µg/mL
O=C1N(c2ccccc2)C(c2ccc([N+](=O)[O-])cc2)C1(Cl)Cl | ATCC 10231 | 125 µg/mL
Fc1ccc(-c2nc3cc(NC(=S)Nc4ccc(Cl)cc4)ccc3n2C2CCCC2)cc1 | - | 50 µg/mL
CNc1ccc(C(=O)CC(O)CCC(C)C2OC(=O)CC(O)CC(=O)CC(O)CC(O)CC(O)CC(O)CC3(O)CC(O)C(C(=O)O)C(CC(O[C@@H]4O[C@H](C)[C@@H](O)[C@H](N)[C@@H]4O)/C=C/C=C/C=C/C=C\C=C/C=C/C=C/C2C)O3)cc1 | 200 | 0.06 µg/mL
O=C1CN(c2cc3c(cc2F)c(=O)c(C(=O)O)cn3Cc2ccccc2)C(=O)CN1 | ATCC 2091 | 50.1 µg/mL
N#CC(=C1CCCCCC1)c1nc2ccccc2o1 | - | <200 µg/mL
CNc1ccc(C(=O)CC(O)CCC(C)C2OC(=O)CC(O)CC(=O)CC(O)CC(O)CC(O)CC(O)CC3(O)CC(O)C(C(=O)N4CCN(C)CC4)C(CC(O[C@@H]4O[C@H](C)[C@@H](O)[C@H](NC(=O)CN5CCN(C)CC5)[C@@H]4O)/C=C/C=C/C=C/C=C\C=C/C=C/C=C/C2C)O3)cc1 | 200 | 0.06 µg/mL
CC1=C(Sc2ccc(C)cc2)C(=O)c2sc(C)nc2C1=O | ATCC20231 | 50 µg/mL
CCCOc1ccc(N2C(=O)CC(Nc3ccc(Oc4ccc(Cl)cc4)c(Cl)c3)C2=O)cc1 | - | 40 µg/mL
C[C@H]1[C@H](O)[C@@H](C)/C=C/C=C/C=C/C=C/C=C/C=C/C=C/[C@H](O[C@@H]2O[C@H](C)[C@@H](O)[C@H](N)[C@@H]2O)C[C@@H]2O[C@](O)(C[C@@H](O)C[C@@H](O)CC[C@H](O)[C@@H](O)C[C@@H](O)CC(=O)O[C@H]1C)C[C@H](O)[C@H]2C(=O)O | 200 | 0.96 µg/mL
Nc1c(-c2nc3ccccc3o2)sc(=S)n1Cc1ccccc1 | - | <200 µg/mL
CCn1cc(C(=O)O)c(=O)c2cc(F)c(N3CC(=O)NCC3=O)cc21 | ATCC 2091 | 25 µg/mL
COC1CC2CCC(C)C(O)(O2)C(=O)C(=O)N2CCCCC2C(=O)OC(C(C)CC2CCC(O)C(OC)C2)CC(=O)C(C)/C=C(\C)C(O)CC(=O)C(C)CC(C)/C=C/C=C/C=C/1C | ATCC11651 | 0.3 µg/mL
COc1ccc(N2C(=O)C(Cl)(Cl)C2c2ccc([N+](=O)[O-])cc2)cc1 | ATCC 10231 | 125 µg/mL
Oc1ccc(C(=S)N2CCN=C2Cc2cccc3ccccc23)c(O)c1 | ATCC 10231 | 50 µg/mL
CCCCOc1ccc(N2C(=O)CC(Nc3ccc(Oc4ccc(Cl)cc4)c(Cl)c3)C2=O)cc1 | - | 40 µg/mL
CC1=C(Nc2ccc(Br)cc2)C(=O)c2sc(C)nc2C1=O | ATCC20231 | 50 µg/mL
Fc1ccc(-c2nc3cc(NC(=S)Nc4ccccc4)ccc3n2C2CCCC2)cc1 | - | 25 µg/mL
O=C1CC(Nc2ccc(Oc3ccc(Cl)cc3)c(Cl)c2)C(=O)N1c1ccc(Cl)cc1 | - | 40 µg/mL
COC1CC2CCC(C)C(O)(O2)C(=O)C(=O)N2CCCCC2C(=O)OC(C(C)CC2CCC(O)C(C)C2)CC(=O)C(C)/C=C(\C)C(O)C(O)C(=O)C(C)CC(C)/C=C/C=C/C=C/1C | ATCC11651 | 0.125 µg/mL
Oc1ccc(C(=S)n2nnnc2-c2ccc(Cl)cc2)c(O)c1 | ATCC 10231 | 25 µg/mL
COc1cc(O)c2c(c1)C(=O)c1c(cc3c(c1O)-c1c(cc(C)c(C(=O)NC(CO)C(=O)O)c1O)[C@H](OC1OC(C)C(O)C(OC4OCC(O)C(O)C4O)C1O)C3O)C2=O | A9540 | 6.3 µg/mL
COc1ccc(N2C(=O)C(Cl)(Cl)C2c2ccccc2)cc1 | ATCC 10231 | 125 µg/mL
N#CC(C(=S)NCc1ccccc1)c1nc2ccccc2o1 | - | >200 µg/mL
COc1ccc(C2N(c3ccccc3)C(=O)C2(Cl)Cl)cc1 | ATCC 10231 | 125 µg/mL
CCCCCCCCCCCC1=NCCN1C(=S)c1ccc(O)cc1O | 10 isolates | 25 µg/mL